Measurements published in ChEMBL document CHEMBL1158261, “Cercophorins A-C: novel antifungal and cytotoxic metabolites from the coprophilous fungus Cercophora areolata” (1996).

Test system: Candida albicans
Test: Antifungal activity against Candida albicans ATCC 14053 at 200 ug/disk

Structure (SMILES): CC1=C[C@H]2O[C@@H]3C[C@H]4OC(=O)/C=C\C=C\[C@H]([C@@H](C)O)OCC/C(C)=C/C(=O)OC[C@@]2(CC1)[C@]4(C)[C@]31CO1
- inhibition zone (IZ): 29 mm
